# PSTVd loop 6 mutant pool in Nicotiana benthamiana

Region: loop 6 of PSTVd (intermediate strain), upper and lower strand joined, each 5' to 3', the first 5 letters being the upper strand, closing pairs included. Wild type: UGACCGCGAG. Varied positions (N): UNNNCGNNNG.

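A pool of all variants was put on leaves of three Nicotiana benthamiana plants. Progeny were sequenced from the inoculated region (day 5), the margin of the inoculated leaf (day 10) and systemic leaves (day 12).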

Values are reads per thousand in the sample; higher means more abundant, 0 means not found. Each site shows the three plants. "Pool" is the share in the plasmid pool used as inoculum, on the same scale. The inoculated region was read from the minus strand, the other sites from the plus strand. For reference, wild type rose from 20.7 per thousand in the pool to 195, 198, 203 (inoculated region), 629, 591, 734 (leaf margin) and 942, 870, 868 (systemic leaves).

{"sequence": "UCAUCGUCCG", "pool": "0.248", "inoculated region": "0.0869 0.0719 0.0922", "leaf margin": "0 0 0", "systemic leaves": "0 0 0"}
{"sequence": "UGUUCGUUCG", "pool": "0.288", "inoculated region": "0.104 0.0539 0.0184", "leaf margin": "0 0 0.0232", "systemic leaves": "0 0 0"}
{"sequence": "UCAUCGACCG", "pool": "0.118", "inoculated region": "0.174 0.0359 0.0184", "leaf margin": "0 0 0.0232", "systemic leaves": "0 0 0"}
{"sequence": "UCGCCGGGCG", "pool": "0.157", "inoculated region": "0.139 0.0539 0.0184", "leaf margin": "0 0 0", "systemic leaves": "0 0 0"}
{"sequence": "UAUGCGAGCG", "pool": "0.170", "inoculated region": "0.0521 0.0719 0.0738", "leaf margin": "0 0 0", "systemic leaves": "0 0 0"}
{"sequence": "UAAUCGUCGG", "pool": "0.340", "inoculated region": "0.122 0.126 0.0738", "leaf margin": "0 0 0", "systemic leaves": "0 0 0"}
{"sequence": "UCAGCGGAGA", "pool": "0.0131", "inoculated region": "0 0 0", "leaf margin": "0 0 0", "systemic leaves": "0 0 0"}
{"sequence": "UGUCCGAAAG", "pool": "0.170", "inoculated region": "0.487 0.844 0.332", "leaf margin": "0.0552 0.0757 0.0232", "systemic leaves": "0 0 0"}
{"sequence": "UGGGCGUCGG", "pool": "0.248", "inoculated region": "0.0521 0.0359 0.0184", "leaf margin": "0 0 0", "systemic leaves": "0 0 0"}
{"sequence": "UGUGCGUUGG", "pool": "0.314", "inoculated region": "0.174 0.0719 0.0369", "leaf margin": "0 0 0", "systemic leaves": "0 0 0"}
{"sequence": "UGGACGAAAG", "pool": "0.131", "inoculated region": "0.122 0.0539 0.0738", "leaf margin": "0 0 0", "systemic leaves": "0 0 0"}
{"sequence": "UUCACGCGUG", "pool": "0.183", "inoculated region": "0.139 0.126 0.0738", "leaf margin": "0 0 0.0232", "systemic leaves": "0 0 0"}
{"sequence": "UGUCCGACAG", "pool": "0.196", "inoculated region": "0.191 0.108 0.0922", "leaf margin": "0 0 0", "systemic leaves": "0 0 0"}
{"sequence": "UUCGCGCGGG", "pool": "0.706", "inoculated region": "0.209 0.126 0.148", "leaf margin": "0 0.555 0", "systemic leaves": "0 0.0202 0"}
{"sequence": "GGACCGUUUG", "pool": "0.0261", "inoculated region": "0.0174 0 0", "leaf margin": "0 0 0", "systemic leaves": "0 0 0"}
{"sequence": "UCGACGCAUG", "pool": "0.248", "inoculated region": "0.104 0.0719 0.0369", "leaf margin": "0 0 0", "systemic leaves": "0 0 0"}
{"sequence": "UCGGCGGCCG", "pool": "0.366", "inoculated region": "0.0521 0.0719 0.0184", "leaf margin": "0 0 0", "systemic leaves": "0 0 0"}
{"sequence": "UCUUCGUGGG", "pool": "0.157", "inoculated region": "0.0521 0.0898 0.129", "leaf margin": "0.0276 0 0.0232", "systemic leaves": "0 0 0"}
{"sequence": "UGGACGGCAG", "pool": "0.118", "inoculated region": "0.0348 0.0898 0.111", "leaf margin": "0 0 0.0232", "systemic leaves": "0.0359 0.0808 0.0205"}
{"sequence": "UUAUCGUUUG", "pool": "0.327", "inoculated region": "0.139 0.0539 0.0369", "leaf margin": "0 0 0", "systemic leaves": "0 0 0"}
{"sequence": "UGAACGGCUG", "pool": "0.301", "inoculated region": "0.747 0.826 0.590", "leaf margin": "0.193 0.101 0.116", "systemic leaves": "0 0 0"}
{"sequence": "UCCCCGCGAU", "pool": "0.0131", "inoculated region": "0.0174 0.0898 0.129", "leaf margin": "0.0552 0.0252 0.0232", "systemic leaves": "0 0 0"}
{"sequence": "UACACGGAAG", "pool": "0.0523", "inoculated region": "0.869 0.772 0.479", "leaf margin": "0.138 0.101 0.0232", "systemic leaves": "0 0 0"}
{"sequence": "UCUACGAUCG", "pool": "0.340", "inoculated region": "0.0869 0.126 0.0553", "leaf margin": "0 0 0", "systemic leaves": "0 0 0"}
{"sequence": "UGUGCGUAGG", "pool": "0.248", "inoculated region": "0.0695 0.0898 0.0369", "leaf margin": "0 0 0.0232", "systemic leaves": "0 0 0"}
{"sequence": "UGUACGCGUG", "pool": "0.196", "inoculated region": "0.104 0.108 0.0922", "leaf margin": "0 0 0.0232", "systemic leaves": "0 0 0"}
{"sequence": "UGCGCGAGAG", "pool": "0.209", "inoculated region": "0.226 0.126 0.166", "leaf margin": "0 0 0.0232", "systemic leaves": "0 0 0"}
{"sequence": "UCUCUGGGAG", "pool": "0.0131", "inoculated region": "0 0 0", "leaf margin": "0 0 0", "systemic leaves": "0 0 0"}
{"sequence": "UUCUCGCCGG", "pool": "0.340", "inoculated region": "0.0348 0.0898 0.0369", "leaf margin": "0 0.151 0.0232", "systemic leaves": "0 0 0"}
{"sequence": "UCGCCGAAGG", "pool": "0.157", "inoculated region": "0.0869 0.144 0.0184", "leaf margin": "0 0 0", "systemic leaves": "0 0 0"}
{"sequence": "UCUGCGUGUG", "pool": "0.261", "inoculated region": "0.122 0.0539 0.0922", "leaf margin": "0 0 0", "systemic leaves": "0 0 0"}
{"sequence": "UCGUCGAUCG", "pool": "0.301", "inoculated region": "0.0695 0.0898 0.0922", "leaf margin": "0.0276 0 0", "systemic leaves": "0 0 0"}
{"sequence": "UGACGGACGG", "pool": "0.0131", "inoculated region": "0 0 0", "leaf margin": "0 0 0", "systemic leaves": "0 0 0"}
{"sequence": "UGCACGGCUG", "pool": "0.170", "inoculated region": "0.139 0.0539 0.0922", "leaf margin": "0 0 0", "systemic leaves": "0 0 0"}
{"sequence": "UAAUCGUACG", "pool": "0.235", "inoculated region": "0.122 0.180 0", "leaf margin": "0.0552 0 0", "systemic leaves": "0 0 0"}
{"sequence": "UAUGCGUGAG", "pool": "0.196", "inoculated region": "0.156 0.162 0.129", "leaf margin": "0.0276 0 0.0232", "systemic leaves": "0 0 0"}
{"sequence": "UGGGCGGCCG", "pool": "0.248", "inoculated region": "0.122 0.0539 0.0369", "leaf margin": "0 0 0", "systemic leaves": "0 0 0"}
{"sequence": "UCUACGCGGA", "pool": "0.0131", "inoculated region": "0 0 0", "leaf margin": "0 0 0", "systemic leaves": "0 0 0"}
{"sequence": "UCUGCGUUCG", "pool": "0.379", "inoculated region": "0.104 0.0719 0.0553", "leaf margin": "0 0 0.0232", "systemic leaves": "0 0 0"}

A selection of 5 entries from above:

| sequence | pool | inoculated region | leaf margin | systemic leaves |
|---|---|---|---|---|
| UCCCCGCGAU | 0.0131 | 0.0174 0.0898 0.129 | 0.0552 0.0252 0.0232 | 0 0 0 |
| UUCACGCGUG | 0.183 | 0.139 0.126 0.0738 | 0 0 0.0232 | 0 0 0 |
| UGUCCGACAG | 0.196 | 0.191 0.108 0.0922 | 0 0 0 | 0 0 0 |
| UAAUCGUCGG | 0.340 | 0.122 0.126 0.0738 | 0 0 0 | 0 0 0 |
| UCGCCGGGCG | 0.157 | 0.139 0.0539 0.0184 | 0 0 0 | 0 0 0 |

The authors trace changes outside the varied positions to PCR and sequencing errors or to mutation in the plant; presence does not show that a variant is infectious alone. With 36,220-57,551 reads a sample, very low values are single reads.

Values reported by Wu et al. 2024 (doi:10.1371/journal.ppat.1012142).